Anti-infective test results gathered from many reports (values: NIAID ChemDB through PubChem).

All rows: whole-cell or culture tests; organism: HIV-1; cells: MT-2; measure: EC50

Lines come from different laboratories, so protocols vary. ECn: concentration that inhibits the pathogen or its effect by n%. Blank or dashed fields: not listed here.

smiles,setting,read by,changes,strain or isolate,value
CCCCCCCC/C=C\CCCCCCCOCCCOP(=O)(O)CO[C@H](CO)Cn1cnc2c(N)ncnc21,,p24,RT,LAI,0.107 µM
COc1ccc2c(c1)[C@@H](N1CCCC1=O)C[C@@H](c1cccc(N)c1)N2,,MTT,,NL4-3,69.07 µM
[2H]C(CN)(NC(=O)c1ccc(Cl)cc1)C(=O)NC[C@H](O)[C@@]12CC[C@]3(C)[C@H](CC[C@@H]4[C@@]5(C)CC[C@H](OC(=O)[C@H]6C[C@@H](C(=O)O)C6(C)C)C(C)(C)[C@@H]5CC[C@]43C)C1=C(C(C)C)C(=O)C2,,p24 / ELISA,,92HT599,<1 µM
Cc1ncc(-c2ccc(OCCOC(C)(C)C)cn2)c(N2CCC3CCCCC3C2)c1[C@H](OC(C)(C)C)C(=O)O,,luminescence,,NL4-3,4.9 µM
COC(=O)C(CCNC(=O)/C=C/c1ccc(O)c(O)c1)NC(=O)/C=C/c1ccc(O)c(O)c1,,cytopathic effect / neutral red,,LAI,>62.5 µM
CC(C)[C@H](NC(=O)[C@H](Cc1ccccc1)C[C@H](O)[C@H](Cc1ccccc1)NC(=O)OC(C)(C)C)C(=O)N[C@@H](Cc1ccccc1)C(=O)N1CCOCC1,,RT activity,,Z-84,0.01 µM
Cc1ncc(-c2ccc(OCCOc3ccccc3Cl)cn2)c(N2CCC3(CCCC3)CC2)c1[C@H](OC(C)(C)C)C(=O)O,,luminescence,,NL4-3,52.5 µM
O=C(/C=C/c1cc(O)c(O)c(O)c1)NCC(NC(=O)/C=C/c1cc(O)c(O)c(O)c1)C(=O)O,,cytopathic effect / neutral red,,LAI,1.6 µM
CN(C)C(=O)C(=O)NC12CCC(CC1)Cn1c2nc(C(=O)NCc2ccccc2C(F)(F)F)c(O)c1=O,pseudotyped,luciferase,(delta)nef,NL4-3,<0.01 µM
O=C(NCCC(NC(=O)c1cc(O)c(O)c(O)c1)C(=O)O)c1cc(O)c(O)c(O)c1,,cytopathic effect / neutral red,,LAI,2.7 µM
CC(C)[C@H](NC(=O)[C@H](Cc1ccccc1)C[C@H](O)[C@H](Cc1ccccc1)NC(=O)OC(C)(C)C)C(=O)N[C@@H](Cc1ccccc1)C(=O)N1CCOCC1,,RT activity,,MN,0.0069 µM
COc1ccc(C[C@H](C[C@H](O)[C@H](Cc2ccccc2)NC(=O)OC(C)(C)C)C(=O)N[C@H](C(=O)NCCN(C)C)C(C)C)cc1OC,,RT activity,,MN,<1 µM
Cc1ncc(-c2ccc(OCC(C)C)cn2)c(N2CCC3(CCC3)CC2)c1[C@H](OC(C)(C)C)C(=O)O,,luminescence,,NL4-3,36.1 µM
C=Cc1c(C)c2cc3[nH]c(cc4nc(cc5nc(cc1[nH]2)C(C)=C5CCC(=O)O)C(CCC(=O)O)=C4C)c(C)c3C(C)O,,cytopathic effect / XTT,,IIIB,3.1 µg/mL
Cc1ccc(-c2nc3ccc(C(=O)NC[C@H](O)[C@@]45CC[C@]6(C)[C@H](CC[C@@H]7[C@@]8(C)CC[C@H](OC(=O)[C@H]9C[C@@H](C(=O)O)C9(C)C)C(C)(C)[C@@H]8CC[C@]76C)C4=C(C(C)C)C(=O)C5)cc3[nH]2)cn1,,p24 / ELISA,,92HT599,<1 µM
Cc1cccc(C)c1OCCNc1ccc(-c2cnc(C)c([C@H](OC(C)(C)C)C(=O)O)c2N2CCC(C)(C)CC2)nc1,,luminescence,,NL4-3,0.002 µM
COC(=O)C(CCCNC(=O)/C=C/c1cc(OC)c(OC)c(OC)c1)NC(=O)/C=C/c1cc(OC)c(OC)c(OC)c1,,cytopathic effect / neutral red,,LAI,>31.3 µM
O=C1CCCN1[C@H]1C[C@@H](c2cccc([N+](=O)[O-])c2)Nc2ccc(I)cc21,,MTT,,NL4-3,>50 µM
Cc1ncc(-c2cnc(NC3CCc4cc(F)ccc4C3)c(F)c2)c(N2CCC(C)(C)CC2)c1[C@H](OC(C)(C)C)C(=O)O,,luminescence,,NL4-3,0.0071 µM
COc1ccc(C2SCC(=O)N2c2ccc(S(N)(=O)=O)cc2)cc1,,MTT,,IIIB,≥182 µM
[2H]C(CO)(CNCC[C@@]12CC[C@]3(C)[C@H](CC[C@@H]4[C@@]5(C)CC[C@H](OC(=O)[C@H]6C[C@@H](C(=O)O)C6(C)C)C(C)(C)[C@@H]5CC[C@]43C)C1=C(C(C)C)C(=O)C2)NC(=O)c1ccc(Cl)cc1,,p24 / ELISA,,92HT599,<1 µM
Cc1ncc(-c2ccc(OCC(C)C)cn2)c(N2CCC3(CCCC3)C2)c1[C@H](OC(C)(C)C)C(=O)O,,luminescence,,NL4-3,11.9 µM
Cc1cnc(N2C(=O)CSC2c2c(Cl)cccc2Cl)c(C)c1,,MTT,,IIIB,0.082 µM
COCCNC(=O)[C@@H](NC(=O)[C@H](Cc1ccc(OC)c(OC)c1)C[C@H](O)[C@H](Cc1ccccc1)NC(=O)OC(C)(C)C)C(C)C,,RT activity,,MN,<0.1 µM
Cc1ncc(-c2ccc(OCC(C)C)cn2)c(N2CCC3(CCCO3)CC2)c1[C@H](OC(C)(C)C)C(=O)O,,luminescence,,NL4-3,18.3 µM
Cc1ccc(OCCOc2ncc(-c3cnc(C)c([C@H](OC(C)(C)C)C(=O)O)c3N3CCC(C)(C)CC3)cc2F)c(Cl)c1,,luminescence,,NL4-3,0.0026 µM
CN(C)C(=O)C(=O)NC12CCC(CC1)Cn1c2nc(C(=O)NCc2cc(Cl)cc(OC(F)(F)F)c2)c(O)c1=O,pseudotyped,luciferase,(delta)nef,NL4-3,<0.01 µM
Cc1nnc(CN(CCN(C)C)CC[C@@]23CC[C@]4(C)[C@H](CC[C@@H]5[C@@]6(C)CC[C@H](OC(=O)[C@H]7C[C@@H](C(=O)O)C7(C)C)C(C)(C)[C@@H]6CC[C@]54C)C2=C(C(C)C)C(=O)C3)o1,,p24 / ELISA,,92HT599,<1 µM
COCCNC(=O)[C@@H](NC(=O)[C@H](Cc1ccc(OC)cc1OC)C[C@H](O)[C@H](Cc1ccccc1)NC(=O)OC(C)(C)C)C(C)C,,RT activity,,MN,<0.1 µM
C=Cc1c(C)c2cc3c(C=C)c(C)c(cc4nc(cc5nc(cc1[nH]2)C(C)=C5CCC(=O)O)C(CCC(=O)O)=C4C)n3C,,cytopathic effect / XTT,,IIIB,0.89 µg/mL
CN(C(=O)[C@H](Cc1cc(F)cc(F)c1)NC(=O)NS(=O)(=O)N[C@@H](Cc1cc(F)cc(F)c1)C(=O)N(C)c1ccc(N2CCOCC2)cc1)c1ccc(N2CCOCC2)cc1,,luciferase,,NL4-3,0.09 µM
CC1=C(CCC(=O)O)c2cc3[nH]c(cc4[nH]c(cc5nc(cc1n2)C(CCC(=O)O)=C5CC(=O)O)c(CCC(=O)O)c4CC(=O)O)c(CCC(=O)O)c3CC(=O)O,,cytopathic effect / XTT,,IIIB,9.2 µg/mL
COc1ccc(N(C)C(=O)[C@H](Cc2ccccc2)NC(=O)CCC(=O)N[C@@H](Cc2ccccc2)C(=O)N(C)c2ccc(OC)cc2)cc1,,luciferase,,NL4-3,3.25 µM
CC(C)C1=C2[C@H]3CC[C@@H]4[C@@]5(C)CC[C@H](OC(=O)[C@H]6C[C@@H](C(=O)O)C6(C)C)C(C)(C)[C@@H]5CC[C@@]4(C)[C@]3(C)CC[C@@]2([C@@H](O)CNC(=O)CN2CCOCC2)CC1=O,,p24 / ELISA,,92HT599,<1 µM
Cc1ccc2c(c1)[C@@H](N1CCCC1=O)C[C@@H](c1cccc([N+](=O)[O-])c1)N2,,MTT,,NL4-3,>50 µM
COc1ccc(-n2ccnc2[C@H](Cc2ccccc2)NC(=O)c2cccc(C(=O)N[C@@H](Cc3ccccc3)c3nccn3-c3ccc(OC)cc3)c2)cc1,,luciferase,,NL4-3,2.8 µM
Nc1ncnc2c1ncn2[C@H]1C=C[C@@H](OCP(=O)(O)O)O1,,cytopathic effect,RT-K65R,,6.09 µM
Nc1cccc([C@@H]2C[C@H](N3CCCC3=O)c3cc(I)ccc3N2)c1,,MTT,,NL4-3,>50 µM
O=C(NCCCC(NC(=O)c1ccc(O)c(O)c1)C(=O)O)c1ccc(O)c(O)c1,,cytopathic effect / neutral red,,LAI,>62.5 µM
CN(C)C(=O)C(=O)NC12CCC(CC1)Cn1c2nc(C(=O)NCc2ccncc2)c(O)c1=O,pseudotyped,luciferase,(delta)nef,NL4-3,<0.01 µM
COc1ccc(N(C)C(=O)[C@H](Cc2ccccc2)NC(=O)NS(=O)(=O)N[C@@H](Cc2ccccc2)c2nnc(SC)o2)cc1,,luciferase,,NL4-3,6.78 µM
CCC1(C)CCN(c2c(-c3ccc(OCCOC(C)(C)C)cn3)cnc(C)c2[C@H](OC(C)(C)C)C(=O)O)CC1,,luminescence,,NL4-3,2.1 µM
C=C(C)COc1ccc(-c2cnc(C)c([C@H](OC(C)(C)C)C(=O)O)c2N2CCC(C)(C)CC2)nc1,,luminescence,,NL4-3,0.0033 µM
CCCCCCCCCCCCCCCCCCOCCOP(=O)(O)CO[C@H](CO)Cn1cnc2c(N)ncnc21,,p24,RT-K65R,,0.003 µM
C=Cc1c(C)c2cc3[nH]c(cc4nc(cc5nc(cc1[nH]2)C(C)=C5CCC(=O)OC)C(CCC(=O)OC)=C4C)c(C)c3C=C,,cytopathic effect / XTT,,IIIB,48.9 µg/mL
CCCN(C(=O)[C@H](Cc1cc(F)cc(F)c1)NC(=O)CS(=O)(=O)N[C@@H](Cc1cc(F)cc(F)c1)C(=O)N(CCC)c1ccc2nccnc2c1)c1ccc2nccnc2c1,,luciferase,,NL4-3,14.97 µM
Nc1cccc([C@@H]2C[C@H](N3CCCC3=O)c3ccccc3N2)c1,,MTT,,NL4-3,>50 µM
Nc1ccc(C2SCC(=O)N2c2ccc(Cl)cc2)cc1,,MTT,,IIIB,≥154.6 µM
O=C(/C=C/c1cc(O)c(O)c(O)c1)NCCCC(NC(=O)/C=C/c1cc(O)c(O)c(O)c1)C(=O)O,,cytopathic effect / neutral red,,LAI,1.1 µM
COCCNC(=O)[C@@H](NC(=O)[C@H](Cc1ccc(OC)cc1)C[C@H](O)[C@H](Cc1ccccc1)NC(=O)OC(C)(C)C)C(C)C,,RT activity,,MN,<0.03 µM
O=C(O)c1cc(-n2cccc2)ccc1Cl,,p24,,IIIB,2.1 µM
COCCNC(=O)[C@@H](NC(=O)[C@H](Cc1cc(OC)c(OC)c(OC)c1)C[C@H](O)[C@H](Cc1ccccc1)NC(=O)OC(C)(C)C)C(C)C,,RT activity,,MN,<0.3 µM
COc1ccc([C@@H]2CC(=O)c3c(O)cc(O[C@@H]4O[C@H](CO[C@@H]5O[C@@H](C)[C@H](OP(=O)(O)O)[C@@H](OP(=O)(O)O)[C@H]5O)[C@@H](OP(=O)(O)O)[C@H](OP(=O)(O)O)[C@H]4O)cc3O2)cc1O,,syncytia,,IIIS,2.8 µg/mL
Cc1ncc(-c2ccc(NCCOc3ccccc3)cn2)c(N2CCC(C)(C)CC2)c1[C@H](OC(C)(C)C)C(=O)O,,luminescence,,NL4-3,0.0016 µM
O=C(/C=C/c1ccc(O)c(O)c1)NCCC(NC(=O)/C=C/c1ccc(O)c(O)c1)C(=O)O,,cytopathic effect / neutral red,,LAI,67.2 µM
COc1cc(OC)c2ccc(-c3cccc([N+](=O)[O-])c3)nc2c1,,MTT,,NL4-3,18.48 µM
O=C(O)CCC1=C(CC(=O)O)c2cc3nc(cc4[nH]c(cc5[nH]c(cc1n2)c(CC(=O)O)c5CCC(=O)O)c(CC(=O)O)c4CCC(=O)O)C(CC(=O)O)=C3CCC(=O)O,,cytopathic effect / XTT,,IIIB,9.8 µg/mL
Cc1ncc(-c2ccc(OCCCC3CCCCC3)cn2)c(N2CCC(C)(C)CC2)c1[C@H](OC(C)(C)C)C(=O)O,,luminescence,,NL4-3,0.0032 µM
O=C1CSC(c2c(Cl)cccc2Cl)N1CCc1ccccc1,,MTT,,IIIB,228 µM
CCC1(C)CCN(c2c(-c3ccc(OCC4CCC4)cn3)cnc(C)c2[C@H](OC(C)(C)C)C(=O)O)CC1,,luminescence,,NL4-3,4.4 µM
CC(C)C1=C2[C@H]3CC[C@@H]4[C@@]5(C)CC[C@H](OC(=O)[C@H]6C[C@@H](C(=O)O)C6(C)C)C(C)(C)[C@@H]5CC[C@@]4(C)[C@]3(C)CC[C@@]2(CC(=O)NCC(C)(C)NC(=O)c2ccc(CN3CCOCC3)cn2)CC1=O,,p24 / ELISA,,92HT599,<1 µM
COC(=O)C(CCCNC(=O)c1ccc(O)c(O)c1)NC(=O)c1ccc(O)c(O)c1,,cytopathic effect / neutral red,,LAI,>62.5 µM
CC(C)C1=C2[C@H]3CC[C@@H]4[C@@]5(C)CC[C@H](OC(=O)[C@H]6C[C@@H](C(=O)O)C6(C)C)C(C)(C)[C@@H]5CC[C@@]4(C)[C@]3(C)CC[C@@]2([C@@H](O)CNC(=O)c2ccc(Cl)cc2O[C@H]2CCOC2)CC1=O,,p24 / ELISA,,92HT599,<1 µM
O=[N+]([O-])c1cccc(-c2ccc3ccccc3n2)c1,,MTT,,NL4-3,63.67 µM
Cc1ncc(-c2ccc(OCC(C)C)cn2)c(N2CCC3(CCCCC3)CC2)c1[C@H](OC(C)(C)C)C(=O)O,,luminescence,,NL4-3,17.6 µM

Repeating the first 4 entries:

smiles	setting	read by	changes	strain or isolate	value
CCCCCCCC/C=C\CCCCCCCOCCCOP(=O)(O)CO[C@H](CO)Cn1cnc2c(N)ncnc21		p24	RT	LAI	0.107 µM
COc1ccc2c(c1)[C@@H](N1CCCC1=O)C[C@@H](c1cccc(N)c1)N2		MTT		NL4-3	69.07 µM
[2H]C(CN)(NC(=O)c1ccc(Cl)cc1)C(=O)NC[C@H](O)[C@@]12CC[C@]3(C)[C@H](CC[C@@H]4[C@@]5(C)CC[C@H](OC(=O)[C@H]6C[C@@H](C(=O)O)C6(C)C)C(C)(C)[C@@H]5CC[C@]43C)C1=C(C(C)C)C(=O)C2		p24 / ELISA		92HT599	<1 µM
Cc1ncc(-c2ccc(OCCOC(C)(C)C)cn2)c(N2CCC3CCCCC3C2)c1[C@H](OC(C)(C)C)C(=O)O		luminescence		NL4-3	4.9 µM